Anti-infective test results gathered from many reports (values: NIAID ChemDB through PubChem).

Common to all: whole-cell or culture tests; agent: Vaccinia virus

An empty or dashed field is not shown. ECn: concentration that inhibits the pathogen or its effect by n%. Inhibition is in % at the dose shown (toxicity tests: loss of growth or viability). Two numbers with a dash give a range or band. Conditions beyond the fields shown may differ between rows.

SMILES,strain or isolate,cell line,measure,dose,result
N=c1ncn(Cc2ccco2)c2nc[nH]c12,-,BSC-1,inhibition,100 µg/mL,0%
CCn1nc(Cc2n[nH]c(=S)o2)nc1C,-,-,MIC,-,>400 µg/mL
CC1COc2c(N3CCN(C)CC3)c(F)cc3c(=O)c(C(=O)O)cn1c23,Lister,HeLa,EC50,-,37 µg/mL
CCn1nc(CC(=O)N/N=C/c2ccco2)nc1C,-,-,MIC,-,>400 µg/mL
Cn1cc(NC(=O)c2cc(NC(=O)c3cc([N+](=O)[O-])cn3C)cn2C)cc1C(=O)NCCC(=N)N,Noguchi,BSC-1,inhibition,100 µg/mL,0%
O=c1[nH]c(=O)n([C@H]2C[C@H](O)[C@@H](CO)O2)cc1I,-,PRK,EC99,-,0.25 µg/mL
N=c1c2ncn([C@@H]3O[C@H](COP(=O)(O)O)[C@@H](O)[C@@H]3O)c2ncn1O,-,-,MIC,-,1–10 µg/mL
Cn1cc(NC(=O)c2cc(NC(=O)CN=C(N)N)cn2C)c(C(=O)NCCC(=N)N)c1,Noguchi,BSC-1,inhibition,75 µg/mL,100%
Nc1ccn(C[C@@H](CO)OCP(=O)(O)O)c(=O)n1,-,-,MIC,-,4 µg/mL
COc1ccc(-n2c(Cc3nc4n(n3)CCCC4)n[nH]c2=S)cc1,-,-,MIC,-,80 µg/mL
CCCn1cnc(=N)c2[nH]cnc21,-,BSC-1,inhibition,50 µg/mL,0%
CCn1nc(CC(=O)NN=C(C)C)nc1C,-,-,MIC,-,>400 µg/mL
CCSc1ncnc2c1ncn2[C@@H]1OC2COP(=O)(O)OC2[C@H]1O,-,-,MIC,-,1000 µg/mL
CCCCn1cnc(=N)c2[nH]cnc21,-,BSC-1,inhibition,12 µg/mL,0%
C/C=C/c1cn([C@H]2C[C@H](O)[C@@H](CO)O2)c(=O)[nH]c1=O,-,PRK,EC99,-,>100 µg/mL
Cc1ccc(Cn2cnc(=N)c3[nH]cnc32)cc1,-,BSC-1,inhibition,12 µg/mL,0%
Nc1nccc2c1ncn2[C@@H]1C[C@H](CO)[C@@H](O)[C@H]1O,-,-,MIC,-,2 µg/mL
Cc1cccc(Cn2cnc(=N)c3[nH]cnc32)c1,-,BSC-1,inhibition,50 µg/mL,0%
CCn1nc(-c2ccc(Cn3ccc4ccccc43)cc2)nc1C,-,-,MIC,-,80 µg/mL

2 of the rows above, restated:

| SMILES | strain or isolate | cell line | measure | dose | result |
|---|---|---|---|---|---|
| Cc1ccc(Cn2cnc(=N)c3[nH]cnc32)cc1 | - | BSC-1 | inhibition | 12 µg/mL | 0% |
| Nc1nccc2c1ncn2[C@@H]1C[C@H](CO)[C@@H](O)[C@H]1O | - | - | MIC | - | 2 µg/mL |